Measured values published in publication PMC4997874 (Antimicrobial Agents and Chemotherapy, 2016).
Where a name gives a salt, the structure may show the parent alone.

Tests used:
[1] = tested on: PrP^Sc accumulation in persistently infected hTERT-ovine microglia; experiment: Standard scrapie cell assay (SSCA), cell-based antiprion activity; settings: CC50 (WST-1) / TC-EC50 (SSCA)
[2] = tested on: PRNP transcripts in PrP^Sc-negative hTERT-ovine microglia; experiment: PRNP transcript levels by qRT-PCR; format: cell-based; settings: 1 μM, 4 days, PrP^Sc-negative cells, normalized to GAPDH, vs vehicle control

SMILES | Selectivity index (CC50/TC-EC50) [1] | Fold change in PRNP transcripts [2]
c1ccc2[nH]c(-c3ccc(-c4ccc(C5=NCCN5)cc4)o3)nc2c1 [DB772, 2-(2-benzimidazolyl)-5-[4-(2-imidazolino)phenyl] furan dihydrochloride] | 4.75 | 
N=C(N)c1ccc(-c2ccc(-c3nc4ccc(C(=N)N)cc4[nH]3)s2)cc1 [DB818A] | > 6.9 | 
c1ccc2[nH]c(-c3ccc(-c4ccc(C5=NCCN5)cc4)s3)nc2c1 [DB932A] | 6.4 | less than 2 fold
Cn1c(-c2ccc(-c3ccc(C4=NCCN4)cc3)o2)nc2ccccc21 [DB948] | 3.5 | less than 2 fold
